Assay results taken from patent US20030216569A1, “Method of making HIV protease inhibitors” (priority 1993, published 2003).
The source holds more than one record for some entries. The list is limited to them. An entry can have further records. Values that stand side by side do not match, cause unknown; some may be repeats, others may stem from another dose, organism or construct than stated.

Tested on: HIV-1 isolates IIIB and/or RF in CEM cells
Assay: SRI primary anti-HIV screen, MTT assay of inhibition of HIV-induced cell killing in CEM cells
Format: cell-based

Structure (SMILES): CC(C)(C)NC(=O)[C@@H]1C[C@@H]2CCCC[C@@H]2CN1C[C@@H](O)[C@H](Cc1ccccc1)NC(=O)c1cccc(Cl)c1Cl (relative stereo)
- SRI CEM IC50: 2550 ng/mL and 1240 ng/mL

Structure (SMILES): Cc1cnccc1C(=O)N[C@@H](CSc1ccccc1)[C@H](O)CN1CCN(Cc2cccnc2)C[C@H]1C(=O)NC(C)(C)C (relative stereo)
- SRI CEM IC50: 501 ng/mL and 156 ng/mL
